{
  "source": "paper PMC6778150",
  "about": "(Scientific Reports, 2019)",
  "assay": "peptide made by a vendor",
  "conditions": "whole synthesis, 220 nm, trifluoroacetate salt",
  "note": "HELM strings list residues between dots; [ac] is acetyl, [am] amide, other brackets name non-standard units.",
  "data": [
    {"substance": "PEPTIDE1{[Abz].R.S.V.I.[Lys(Dnp)]}$$$$V2.0", "values": [
      {"measurement": "final HPLC purity", "value": 98.66, "unit": "%"},
      {"measurement": "final HPLC purity", "setting": "HPLC, C18, linear gradient", "value": "over 98%"}
    ]}
  ]
}
